Source: PubChem BioAssay AID624099 (ICCB-Longwood, 2012)
Aim: 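Host factors E2 relies on to silence an HPV18 LCR reporter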 (primary screen). System: human C33A cervical carcinoma cells (HPV-negative) stably expressing BPV1 E2 and an HPV18 LCR luciferase reporter. Reagent: siRNA pool against human genes, 40 nM. Timing: 72 h. Measured: 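Per-well luciferase luminescence, z-scored on each plate against the plate mean and SD with control wells left out, then averaged across three replicate plates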. Scale: mean z-score and z-score: higher = stronger reporter signal, weaker E2 silencing. Call rule: 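Mean z ≥ 2 together with z ≥ 2 in two or more of the three replicates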.
The deposit covers about 21,000 reagents; shown is a random part of them. Of all reagents, 497 (2.4%) were called active. 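Higher z means weaker E2 silencing; only reporter increases were scored, and knock-downs that hurt cell survival may mask genuine repressor factors.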

The first 2 records, ahead of the listing:
{"target gene":"LOC392177 (retired record)","mean z-score":-0.78,"z-score, replicate A":-1.03,"z-score, replicate B":-0.7,"z-score, replicate C":-0.61,"Call":"inactive"}
{"target gene":"ZPBP2","mean z-score":-1.58,"z-score, replicate A":-1.93,"z-score, replicate B":-1.55,"z-score, replicate C":-1.26,"Call":"inactive"}

The listing, from the first entry:
{"target gene":"LOC392177 (retired record)","mean z-score":-0.78,"z-score, replicate A":-1.03,"z-score, replicate B":-0.7,"z-score, replicate C":-0.61,"Call":"inactive"}
{"target gene":"ZPBP2","mean z-score":-1.58,"z-score, replicate A":-1.93,"z-score, replicate B":-1.55,"z-score, replicate C":-1.26,"Call":"inactive"}
{"target gene":"EYS","mean z-score":-0.53,"z-score, replicate A":-0.81,"z-score, replicate B":-0.33,"z-score, replicate C":-0.44,"Call":"inactive"}
{"target gene":"TMEM43","mean z-score":1.97,"z-score, replicate A":1.79,"z-score, replicate B":1.9,"z-score, replicate C":2.21,"Call":"inactive"}
{"target gene":"MTCH1","mean z-score":0.08,"z-score, replicate A":-0.03,"z-score, replicate B":0.45,"z-score, replicate C":-0.19,"Call":"inactive"}
{"target gene":"FKBP10","mean z-score":-0.24,"z-score, replicate A":0.4,"z-score, replicate B":-0.22,"z-score, replicate C":-0.89,"Call":"inactive"}
{"target gene":"SEPSECS","mean z-score":-0.17,"z-score, replicate A":-0.45,"z-score, replicate B":0.13,"z-score, replicate C":-0.18,"Call":"inactive"}
{"target gene":"TSPAN33","mean z-score":0.06,"z-score, replicate A":-0.04,"z-score, replicate B":0,"z-score, replicate C":0.22,"Call":"inactive"}
{"target gene":"LY6G6E","mean z-score":-0.2,"z-score, replicate A":0.34,"z-score, replicate B":-0.32,"z-score, replicate C":-0.62,"Call":"inactive"}
{"target gene":"LOC391047 (retired record)","mean z-score":1.02,"z-score, replicate A":1.09,"z-score, replicate B":0.99,"z-score, replicate C":1,"Call":"inactive"}
{"target gene":"TRNAU1AP","mean z-score":0.46,"z-score, replicate A":0.75,"z-score, replicate B":0.27,"z-score, replicate C":0.36,"Call":"inactive"}
{"target gene":"EFHC1","mean z-score":0.43,"z-score, replicate A":0.39,"z-score, replicate B":0.39,"z-score, replicate C":0.5,"Call":"inactive"}
